Measured values from several laboratories, pooled; numbers as filed in NIAID ChemDB.

Common to all: target-level tests; agent: Hepatitis C virus

Two numbers with a dash give a range or band. ICn: concentration for n% inhibition. An empty or dashed field is not shown. Lines come from different laboratories, so protocols vary. Inhibition is in % at the dose shown (toxicity tests: loss of growth or viability).

SMILES	strain or isolate	protein	method	measure	dose	result
CC(NC(=O)c1ccc2c(c1)nc(-c1ccoc1)n2C1CCCCC1)C(=O)Nc1cccc(-c2cccc(O)c2)c1		NS5B polymerase		IC50		5–25 µM
O=C(O)[C@@H](Cc1ccccc1)N(Cc1ccc(-c2ccccc2C(F)(F)F)o1)C(=O)c1cccc([N+](=O)[O-])c1		Nonstructural protein 3 NTPase/helicase	HPLC	IC50		<5 µM
Cc1oc2ccc(OCc3ccccc3)cc2c1-c1ccc2cc(-c3nc4cc(C(=O)O)ccc4n3C3CCCCC3)ccc2n1		NS5B polymerase		inhibition	100 µM	96.03%
O=[N+]([O-])c1ccc(-c2cc3c(C(F)(F)F)cc(C(F)(F)F)nc3n3c(-c4ccc([N+](=O)[O-])cc4)cnc23)cc1	JFH-1	Envelope glycoprotein 2	luciferase / reporter gene	IC50		>20 µM
O=C(O)c1cnn2c(-c3ccccc3-c3ccccc3Oc3ccccc3)ccnc12		RNA-dependent RNA polymerase		IC50		>10 µM
Cc1oc(-c2ccc(NC(=O)[C@@H](C)NC(=O)c3ccc4c(c3)nc(-c3ccoc3)n4C3CCCCC3)cc2)cc1C(=O)O		NS5B polymerase		IC50		0.5–5 µM
O=C(O)[C@H](Cc1ccccc1)N(CC#Cc1cc2ccccc2o1)C(=O)c1ccc(Cl)cc1Cl		RNA-dependent RNA polymerase		IC50		<5 µM
O=C(O)/C=C/c1ccc(NC(=O)C2(NC(=O)c3ccc4c(c3)nc(-c3cccs3)n4C3C[C@H]4CC[C@@H]3C4)CCCC2)cc1		NS5B polymerase		IC50		<0.5 µM
COc1ccc2c(C[C@@H]3C[C@H]4C(=O)N[C@]5(C(=O)O)CC5/C=C/CCCCC[C@H](NC(=O)OC(C)(C)C)C(=O)N4C3)cc(-c3ccccc3)nc2c1		NS3 serine protease		Ki		<0.001 µM
COc1cc(C)c(S(=O)(=O)N(Cc2cccc(-c3cc4ccccc4o3)c2)[C@H](Cc2ccccc2)C(=O)O)c(C)c1C		Nonstructural protein 3 NTPase/helicase	HPLC	IC50		>20 µM
O=C(O)c1cc2nc(-c3ccc(OCc4ccccc4)cc3)cc(-c3ccc(Cl)cc3Cl)n2n1		RNA-dependent RNA polymerase		IC50		>10 µM
O=C(O)c1ccc2c(c1)nc(-c1ccc3nc(-c4cc(F)ccc4-c4ccc(Cl)cc4)ccc3c1)n2C1CCCCC1		NS5B polymerase		inhibition	33 µM	101%
O=C(O)c1cc2nccc(-c3cccc(-c4ccsc4)c3)n2n1		RNA-dependent RNA polymerase		IC50		>10 µM
Cc1ccc(-c2cnc3ccc4c(C(F)(F)F)cc(C(F)(F)F)nc4n23)cc1		Envelope glycoprotein 2	luciferase / reporter gene	IC50		9 µM
O=C(NC(Cc1ccc(O)cc1)C(=O)O)c1ccc2c(c1)nc(-c1ccc3nc(-c4ccccc4)cnc3c1)n2C1CCCCC1		NS5B polymerase		inhibition	100 µM	99.11%
O=C(NS(=O)(=O)C(F)(F)F)c1cnn2c(C3CCCCC3)c(-c3ccc(F)cc3)cnc12		RNA-dependent RNA polymerase		IC50		1–10 µM
COc1ccc(-c2ccc(C(=O)O)cc2)c(-c2ccc3cc(-c4nc5cc(C(=O)O)ccc5n4C4CCCCC4)ccc3n2)c1		NS5B polymerase		inhibition	33 µM	100%
FC(F)(F)c1cc(C(F)(F)F)c2cc(-c3ccccc3)c3ncc(-c4ccccc4)n3c2n1	JFH-1	Envelope glycoprotein 2	luciferase / reporter gene	IC50		>20 µM
O=C(O)c1cc2nc(-c3ccc(Oc4cccc(Cl)c4)cc3)c(C3CCCCC3)c(=O)n2[nH]1		RNA-dependent RNA polymerase		IC50		1–10 µM
O=C(c1ccccc1)N1CCC2(CCCN(c3ncc(Br)c(-c4ccc(Cl)cc4)n3)C2)CC1		Nonstructural protein 4B	radioligand binding / binding	IC50		0.0529 µM
C[C@@H](NC(=O)c1ccc2c(c1)nc(-c1ccc[nH]1)n2C1CCCCC1)C(=O)Nc1ccc(/C=C/C(=O)O)cc1		NS5B polymerase		IC50		<0.5 µM
O=C(O)[C@H](Cc1ccccc1)N(Cc1cc(-c2ccc(Cl)c(F)c2)cs1)C(=O)c1ccc(Cl)cc1Cl		RNA-dependent RNA polymerase		IC50		<5 µM
O=C(c1ccc2[nH]ccc2c1)N1CCC2(CCCN(c3ncc(-c4ccccc4)c(-c4ccc(Cl)cc4)n3)C2)CC1		Nonstructural protein 4B	radioligand binding / binding	IC50		0.0421 µM
O=C(O)[C@H](Cc1ccccc1)N(Cc1cc(-c2ccc(Cl)c(Cl)c2)cs1)C(=O)c1ccc(Cl)cc1Cl		RNA-dependent RNA polymerase		IC50		<5 µM
CS(=O)(=O)Nc1cnn2c(C3CCCCC3)c(-c3ccc(OCc4ccccc4)cc3)cnc12		RNA-dependent RNA polymerase		IC50		>10 µM
C[C@H]1CCC[C@H](C)C1n1c(-c2ccccn2)nc2cc(C(=O)NC3(C(=O)Nc4ccc(/C=C/C(=O)O)cc4)CCCC3)ccc21		NS5B polymerase		IC50		0.5–5 µM
O=C(O)c1ccc2c(c1)nc(-c1ccc3nc(-c4cc5c(cc4-c4ccc(Cl)cc4)OCCCO5)ccc3c1)n2C1CCCCC1		NS5B polymerase		inhibition	100 µM	100%
Cc1cccc(-c2cc3c(C(F)(F)F)cc(C(F)(F)F)nc3n3c(-c4ccc(Cl)cc4)cnc23)c1	JFH-1	Envelope glycoprotein 2	luciferase / reporter gene	IC50		>20 µM
NC(=O)[C@H](Cc1ccccc1)NC(=O)c1ccc2cc(-c3nc4cc(C(=O)O)ccc4n3C3CCCCC3)ccc2n1		NS5B polymerase		inhibition	33 µM	81.13%
O=C(O)c1cc2nc(-c3ccc(C(F)(F)F)cc3)cc(-c3ccc(Cl)cc3Cl)n2n1		RNA-dependent RNA polymerase		IC50		>10 µM
C#CCN(C(=O)c1ccc(Cl)cc1Cl)[C@@H](Cc1ccccc1)C(=O)O		RNA-dependent RNA polymerase		IC50		5–20 µM
COc1ccc(-c2ccc(Cl)cc2)c(-c2ccc3cc(-c4nc5cc(C(=O)O)ccc5n4C(C)C)ccc3n2)c1		NS5B polymerase		inhibition	33 µM	99.42%
FC(F)(F)c1cc(C(F)(F)F)c2ccc3ncc(-c4ccc(Cl)cc4)n3c2n1	JFH-1	Envelope glycoprotein 2	luciferase / reporter gene	IC50		11.1 µM
CCOC(=O)c1cnc2c(c1)nc(-c1ccc3nc(-c4cc(O)ccc4-c4ccc(Cl)cc4)ccc3c1)n2C1CCCCC1		NS5B polymerase		inhibition	100 µM	72.78%
O=C(O)[C@H](Cc1ccccc1)N(Cc1ccc(-c2ccc(Br)cc2)o1)C(=O)c1ccc(Cl)cc1Cl		RNA-dependent RNA polymerase		IC50		<5 µM